From publication PMC5512451

Biological target: native Env trimer liberated from VLPs (BN-PAGE shift) (HIV-1)
Test: native gel or EMSA

Substance: N90-VRC38.01 IgG (antibody)
- stoichiometry N (copy per trimer): 1
